Results from US6689782B2, “Fungal efflux pump inhibitors” (priority 2001, dated 2004).

Assays:
[1] = tested on: Candida albicans YEM15 (over-expressing the CDR1 and CDR2 pumps); test: checkerboard assay / broth microdilution, potentiation of fluconazole vs. C. albicans; conditions: 48 h
[2] = tested on: C. glabrata YEM19 (over-expressing the CgCDR1 and CgCDR2 pumps); test: checkerboard assay / broth microdilution, potentiation of fluconazole vs. C. glabrata; conditions: Nakaseomyces glabratus, 48 h

Compound | MIC [1] [µg/mL] | MIC [2] [µg/mL]
COc1ccc(N(C(=O)Nc2ccc(F)cc2)C(C)c2nc3ccccc3c(=O)n2N2CCN(C(=O)[C@@H](NC(=O)OC(C)(C)C)C(C)C)CC2)c(OC)c1 (mixture of isomers) [Compound 279] | > 32 | > 32
COC(=O)NC(C)(C)C(=O)N1CCN(n2c(C(C)N(C(=O)Nc3ccc(F)cc3)c3ccc(OC)cc3OC)nc3ccc(Cl)cc3c2=O)CC1 (racemic) [Compound 334] | > 32 | > 32
CC[C@H](NC(=O)OC(C)(C)C)C(=O)N1CCN(n2c(C(C)N(C(=O)Nc3ccc(F)cc3)c3ccc(OC)cc3OC)nc3ccccc3c2=O)CC1 (mixture of isomers) [Compound 292] | > 32 | > 32
COC(=O)NC(C)(C)C(=O)N1CCN(n2c(C(C)N(C(=O)Nc3ccc(F)cc3)c3ccc(OC)cc3OC)nc3cc(F)ccc3c2=O)CC1 (racemic) [Compound 336] | > 32 | > 32
CCOC(=O)N[C@H](C(=O)N1CCN(n2c(C(C)N(C(=O)Nc3ccc(F)cc3)c3ccc(OC)cc3OC)nc3ccccc3c2=O)CC1)C(C)C (mixture of isomers) [Compound 293] | > 32 | > 32
CC[C@H](NC(=O)OC)C(=O)N1CCN(n2c(C(C)N(C(=O)Nc3ccc(F)cc3)c3ccc(OC)cc3OC)nc3cc(F)c(F)cc3c2=O)CC1 (mixture of isomers) [Compound 287] | > 32 | > 32
COC(=O)N[C@@H](C)C(=O)N1CCN(n2c(C(C)N(C(=O)Nc3ccc(F)cc3)c3ccc(OC)cc3OC)nc3cc(F)c(F)cc3c2=O)CC1 (mixture of isomers) [Compound 306] | > 32 | > 32
COC(=O)N[C@H](C(=O)N1CCN(n2c(C(C)N(C(=O)Nc3ccc(F)cc3)c3ccc(OC)cc3OC)nc3ccc(Cl)cc3c2=O)CC1)[C@@H](C)O (mixture of isomers) [Compound 265] | > 32 | > 32
CCOC(=O)N(C)CC(=O)N1CCN(n2c(C(C)N(C(=O)Nc3ccc(F)cc3)c3ccc(OC)cc3OC)nc3ccccc3c2=O)CC1 (racemic) [Compound 322] | > 32 | > 32
CC[C@H](NC(=O)OC)C(=O)N1CCN(n2c(C(C)N(C(=O)Nc3ccc(F)cc3)c3ccc(OC)cc3OC)nc3cc(F)ccc3c2=O)CC1 (mixture of isomers) [Compound 290] | > 32 | > 32
COC(=O)N(C)[C@@H](C)C(=O)N1CCN(n2c(C(C)N(C(=O)Nc3ccc(F)cc3)c3ccc(OC)cc3OC)nc3ccccc3c2=O)CC1 (mixture of isomers) [Compound 300] | > 32 | > 32
COC(=O)N[C@@H](C)C(=O)N1CCN(n2c(C(C)N(C(=O)Nc3ccc(F)cc3)c3ccc(OC)cc3OC)nc3ccc(Cl)cc3c2=O)CC1 (mixture of isomers) [Compound 307] | > 32 | > 32
COc1ccc(N(C(=O)Nc2ccc(F)cc2)C(C)c2nc3ccc(Cl)cc3c(=O)n2N2CCN(C(=O)C[C@@H]3CCCN3)CC2)c(OC)c1 (mixture of isomers) [Compound 316] | > 32 | > 32
COC(=O)N[C@H](C)C(=O)N1CCN(n2c(C(C)N(C(=O)Nc3ccc(F)cc3)c3ccc(OC)cc3OC)nc3cc(F)c(F)cc3c2=O)CC1 (mixture of isomers) [Compound 296] | > 32 | > 32
CC[C@H](NC(=O)OC)C(=O)N1CCN(n2c(C(C)N(C(=O)Nc3ccc(F)cc3)c3ccc(OC)cc3OC)nc3ccc(Cl)cc3c2=O)CC1 (mixture of isomers) [Compound 288] | > 32 | > 32
COC(=O)N[C@@H](C)C(=O)N1CCN(n2c(C(C)N(C(=O)Nc3ccc(F)cc3)c3ccc(OC)cc3OC)nc3cc(Cl)ccc3c2=O)CC1 (mixture of isomers) [Compound 309] | > 32 | > 32
COc1ccc(N(C(=O)Nc2ccc(F)cc2)C(C)c2nc3ccc(Cl)cc3c(=O)n2N2CCN(C(=O)C(C)(C)N)CC2)c(OC)c1 (racemic) [Compound 327] | > 32 | > 32
COc1ccc(N(C(=O)Nc2ccc(F)cc2)C(C)c2nc3cc(Cl)ccc3c(=O)n2N2CCN(C(=O)[C@H](NC(=O)C(F)(F)F)[C@@H](C)O)CC2)c(OC)c1 (mixture of isomers) [Compound 262] | > 32 | > 32
